Data as given in PubChem BioAssay AID624099 (ICCB-Longwood, 2012)

- Screen: 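Human genes that papillomavirus E2 requires to repress the HPV18 LCR promoter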 (primary screen)
- Cell system: human C33A cervical carcinoma cells (HPV-negative) stably expressing BPV1 E2 and an HPV18 LCR luciferase reporter
- Reagent: siRNA pool against human genes, 40 nM
- Time to read-out: 72 h
- Read-out: 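HPV18 LCR reporter light per well, converted to plate-wise z-scores that exclude control wells, and averaged over triplicate plates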
- Reading the numbers: mean z-score and z-score: higher = stronger reporter signal, weaker E2 silencing
- Rule for the call: 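Hit if mean z-score reaches 2 and two or more of three replicate z-scores also reach 2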
In all, the deposit lists about 21,000 reagents; shown is a part drawn at random. In the full data, 497 (2.4%) were called active. 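Higher z means weaker E2 silencing; only reporter increases were scored, and knock-downs that hurt cell survival may mask genuine repressor factors.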 The numbers tell different reagents against one gene apart. Reagent sequences are not shown.

no.	gene symbol	pool no.	mean z-score	z-score, replicate A	z-score, replicate B	z-score, replicate C	Call
1	TAF4	1	-0.68	-0.72	-0.6	-0.72	inactive
2	ADRA2A	1	0.02	-0.24	0.04	0.26	inactive
3	SLC22A20P	1	1.58	1.42	1.83	1.5	inactive
4	WASF3	1	1.77	1.65	1.65	2.01	inactive
5	CHM	1	-0.52	-0.51	-0.62	-0.44	inactive
6	CHM	2	1.1	1.23	0.88	1.21	inactive
7	H4C4	1	0.29	-0.1	0.46	0.52	inactive
8	GABARAPL1	1	-0.68	-1.01	-0.42	-0.61	inactive
9	KITLG	1	0.12	0.03	0.19	0.15	inactive

3 of these entries in another layout:
CHM #1: mean z-score = -0.52; z-score, replicate A = -0.51; z-score, replicate B = -0.62; z-score, replicate C = -0.44; Call = inactive
CHM #2: mean z-score = 1.1; z-score, replicate A = 1.23; z-score, replicate B = 0.88; z-score, replicate C = 1.21; Call = inactive
H4C4: mean z-score = 0.29; z-score, replicate A = -0.1; z-score, replicate B = 0.46; z-score, replicate C = 0.52; Call = inactive

The list goes on:
no.	gene symbol	pool no.	mean z-score	z-score, replicate A	z-score, replicate B	z-score, replicate C	Call
10	DAPP1	1	0.66	0.7	1.04	0.25	inactive
11	FYN	1	0.7	0.76	0.54	0.81	inactive
12	CBLB	1	0.75	1.13	0.41	0.72	inactive
13	GUCY2F	1	-0.34	-0.41	-0.17	-0.45	inactive
14	FAM86C1P	1	0.54	0.75	0.69	0.17	inactive
15	UPF3A	1	0.12	0.39	-0.02	0	inactive
16	CDK6	1	1.05	0.87	1.46	0.83	inactive
17	PROX1	1	-0.43	-0.43	-0.19	-0.68	inactive
18	ALDH9A1	1	-0.13	-0.39	-0.03	0.04	inactive
19	EFEMP2	1	1.36	1.72	1.45	0.89	inactive
20	SLC7A5P1	1	-1.36	-1.66	-1.3	-1.13	inactive
21	ATP5PO	1	0.35	0.29	0.27	0.5	inactive
22	LOC388616 (retired record)	1	0.63	0.72	0.41	0.76	inactive
23	LHFPL5	1	-0.59	-0.42	-0.76	-0.61	inactive
